## Percent effect of library compounds

From ChEMBL document CHEMBL3988442, “University of Dundee, Small-Polar-MMV Screening Library” (2021).

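Whole-cell growth test on Mycobacterium tuberculosis, read after 4 days in a medium based on cholesterol and the lipid DPPC; the read-out is not stated. Tested at 50 µM. Higher reads as more growth inhibition (inferred: compounds with an IC50 in retests scored well above the rest). Size under these conditions: about 69,000 compounds, about 370 of them at 50% or above in at least one test.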

The filed quantity is “Percent Effect” (%). The controls that fix the scale are not given in the record; negative values are as filed. This is part of a subset picked to be rich in strong results. Two or more numbers in one place are separate tests of the same structure; such repeats can differ widely.

Compound | effect
c1cn(Cc2ccc(N3CCCN(C4CCCC4)CC3)nc2)cn1 | -6.518
CC(C)CN1CC(C(=O)NCCNc2ncccn2)CC1=O (stereo unspecified) | -8.781
CCN1CCC(CNCc2cc(C)ccc2OC)C1 (stereo unspecified) | -8.684
NC1(c2nc(-c3ccccc3)cc(=O)[nH]2)CCCCC1 | -11.36
NC(CC1CCCC1)c1ccc(Oc2ccccc2)cc1 (stereo unspecified) | 105.7
O=C(Cc1cccc(Cl)c1)N[C@@H]1CCNC[C@H]1O | -6.745
CCc1ccc(C(=O)O)cc1S(=O)(=O)Nc1ccc2c(c1)OCCO2 | 3.597
Cn1cc(CN2CCC(F)(F)C3(CCN(c4cnccn4)C3)C2)cn1.O=C(O)C(F)(F)F.O=C(O)C(F)(F)F (stereo unspecified) | 19.04 & 111.4
Cc1ccc(CN(CCCn2ccnc2)Cc2cccs2)s1.O=C(O)CC(O)(CC(=O)O)C(=O)O | 25.49
Cc1noc(-c2c[nH]nc2C2CCCN2C(=O)c2ccccc2)c1C (stereo unspecified) | 53.3
CN(C)c1nc2c(c(N3CCc4c(c(CO)nn4C)C3)n1)CCNC2 | -62.01
CCCC(=O)N(CCCN1CCOCC1)c1nc2c(C)c(C)ccc2s1.Cl | 22.41
CC(C)n1ccc(C(=O)OCC2CC(=O)N(Cc3ccccc3)C2)n1 (stereo unspecified) | 8.87
OCCOCCNCC1(c2ccc(F)cc2)CCOC1 (stereo unspecified) | -4.227
Brc1ccc(NCc2ccc(Cn3ccnc3)cc2)nc1 | 63.45
CCC[C@@H]1CN(Cc2ccc3c(c2)OCCO3)C[C@H]1C(=O)O | -12.34 & 63.42
CN(CC1COc2ccccc2O1)C(=O)C1=NN(C)C(=O)CC1 (stereo unspecified) | 15.44
CCCOc1cc(C)ccc1NC(=O)N(C)C | 0.4143
CN(Cc1nc(CC2CC2)no1)CC1COc2ccccc2O1 (stereo unspecified) | 43.67
CC(C)Cc1nc(CN(C)c2cc(C(C)C)nc3ccnn23)no1 | 33.85
COC(=O)C(NC(=O)c1ccc(NC2CC2)nc1)c1ccccc1 (stereo unspecified) | 33.76
CN(C)S(=O)(=O)N1CCCC1CC(=O)c1cccs1 (stereo unspecified) | 6.003
CCOc1ccc(CNC(=O)N(C)CC(C)(C)O)cc1C | 3.459
CCc1[nH]c2c(CNc3cncc(C(=O)N(C)C)n3)cc(C)cc2c1C | 7.946
CCC(CO)NCc1ccc(-c2ccc(Cl)cc2)o1.Cl (stereo unspecified) | 31.86
COC(=O)CN(C)Cc1cc(Br)cs1 | 86.83
CCn1nc(C)c(CNC(=O)c2nnc3ccc(Cl)cc3n2)c1C | -7.239
COC(=O)CCCN(C)C(c1cccnc1)c1ccc(F)cc1F (stereo unspecified) | -12.23 & -2.692
CC(SCCC(=O)NC(N)=O)c1ccc(F)cc1F (stereo unspecified) | -1.681
CC(C)c1cc(N(C)Cc2cc(C3CC3)on2)n2nccc2n1 | 8.091
Cc1nn(C)c(C)c1CCC(=O)N(C)Cc1ccc(C#N)cc1 | 20.38
CCc1ccccc1OC1CN(C(=O)c2ccsc2)C1 | 52.69 & 46.91
COC(=O)c1ccc(N2CCC(C(O)c3ccccc3)CC2)nn1 (stereo unspecified) | 107.8
C=Cc1ccc(C(=O)N2CCCC(Nc3ccc(F)cc3)C2)cc1 (stereo unspecified) | 31.05
CC(CNC(=O)c1cnccn1)Oc1cccc(Br)c1 (stereo unspecified) | 47.18 & 47.04
O=C(C1CC1)N1CCN(C(=O)C2CC(=O)N(c3ccccc3Br)C2)CC1 (stereo unspecified) | -23.83
Cc1cc(C)nc(N2Cc3cnn(Cc4ccc(F)cc4)c3C2)n1 | -23.97
CN(C)S(=O)(=O)NC(=O)CC(c1ccccc1)C(F)(F)F (stereo unspecified) | -19.05
O=C(O)C(F)(F)F.O=C(O)C(F)(F)F.c1ccc(N2CC[C@H](OCC3CC3)[C@@H]2Cc2cccnc2)nc1 | 1.354
OCc1ccc(CN(CCCn2ccnc2)Cc2ccncc2)o1 | 8.256
O=C(C1CC1)N1CCC(Oc2ccccc2Cl)CC1 | 2.897
CC(=O)NCc1ccc(C(=O)NC2CCc3nc(C)cn3C2)o1 (stereo unspecified) | 52.48
CN(CCC(N)=O)Cc1cc(Br)cs1 | 8.04
Cc1nonc1CN(C)CC1(O)CCCN(CCC2CCCCC2)C1=O (stereo unspecified) | -13.45
CN(C)S(=O)(=O)c1ccc(CNc2ccc(Cl)cn2)cc1 | 6.209
CN(CC1CCCCO1)c1nc(-c2cccnc2)nc2c1CCNC2 (stereo unspecified) | -0.2664
CNC(=O)c1sc(C2CCCC2)nc1C | 2.693

Some entries from above, unchanged:

CCC[C@@H]1CN(Cc2ccc3c(c2)OCCO3)C[C@H]1C(=O)O gave -12.34% & 63.42%.
CC(C)CN1CC(C(=O)NCCNc2ncccn2)CC1=O (stereo unspecified) gave -8.781%.
CN(CCC(N)=O)Cc1cc(Br)cs1 gave 8.04%.